Measured data: PubChem BioAssay AID504761 (Drosophila RNAi Screening Center, 2011)
In all, the deposit lists about 22,000 reagents; this is a random part of those with a known target gene and a result. In the full data, 116 (0.52%) got an active call. 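Calls depend on retest data that are not deposited; infection was ranked per plate without normalising between plates; the unit of the infection score is not given.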 Raw values vary from plate to plate and are shown uncorrected. A number with no mark means an inactive call. Further read-outs or replicates are left out here. Not given: the amount of reagent, the time to read-out.

- Screen: 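Insect host genes that dengue virus relies on to spread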 (primary screen)
- System: D.Mel-2 cells from Drosophila
- Reagent: long dsRNA against Drosophila genes
- Challenge: infection with dengue virus type 2; dose and infection time not stated
- Measurement: 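Per well on two replicate plates, imaging gave the percent of cells positive for viral envelope protein, ranked by infection, and a nuclear count of cells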
- Direction: infection score: higher = more virus-infected cells; cell count: higher = more cells in the well
- Active means: 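Very low infection ranking in both replicate wells (chance probability at most 0.065), then a retest showing infection dropped 1.5-fold or more at p below 0.05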
- Meaning of the calls: active = confirmed: knock-down lowers infection; inactive = not picked or not confirmed

ap (GeneID 35509) [DRSC04917] — infection score, replicate 1 = 10.4; cell count, replicate 1 = 6022
CG14957 (GeneID 38386) [DRSC08416] — infection score, replicate 1 = 2.26; cell count, replicate 1 = 5667
CG18404 (GeneID 43603) [DRSC15323] — infection score, replicate 1 = 9.2; cell count, replicate 1 = 6380
CG18179 (GeneID 39124) [DRSC10303] — infection score, replicate 1 = 1.58; cell count, replicate 1 = 6218
CG18179 (GeneID 39124) [DRSC25528] — infection score, replicate 1 = 1.96; cell count, replicate 1 = 6284
CG12836 (GeneID 35630) [DRSC06182] — infection score, replicate 1 = 15.6; cell count, replicate 1 = 6407
Arpc5 (GeneID 33444) [DRSC00730] — infection score, replicate 1 = 6.43; cell count, replicate 1 = 6068
tex (GeneID 40983) [DRSC16517] — infection score, replicate 1 = 12.5; cell count, replicate 1 = 6275
His3.3A (GeneID 33736) [DRSC03343] — infection score, replicate 1 = 1.24; cell count, replicate 1 = 3951
His3.3A (GeneID 33736) [DRSC25053] — infection score, replicate 1 = 0.94; cell count, replicate 1 = 5651
CG12848 (GeneID 50139) [DRSC04128] — infection score, replicate 1 = 19.8; cell count, replicate 1 = 5981
eIF4E6 (GeneID 43422) [DRSC14853] — infection score, replicate 1 = 5.43; cell count, replicate 1 = 2210
eIF4E6 (GeneID 43422) [DRSC25760] — infection score, replicate 1 = 7.07; cell count, replicate 1 = 6503

Already shown: entries from further up.
CG14957 (GeneID 38386) [DRSC08416] — infection score, replicate 1 = 2.26; cell count, replicate 1 = 5667
CG18404 (GeneID 43603) [DRSC15323] — infection score, replicate 1 = 9.2; cell count, replicate 1 = 6380
CG18179 (GeneID 39124) [DRSC10303] — infection score, replicate 1 = 1.58; cell count, replicate 1 = 6218
CG18179 (GeneID 39124) [DRSC25528] — infection score, replicate 1 = 1.96; cell count, replicate 1 = 6284

The list goes on:
CG34367 (GeneID 5740879) [DRSC02238] — infection score, replicate 1 = 11.4; cell count, replicate 1 = 6460
CG34367 (GeneID 5740879) [DRSC02850] — infection score, replicate 1 = 2.45; cell count, replicate 1 = 6404
CG34367 (GeneID 5740879) [DRSC28054] — infection score, replicate 1 = 9.75; cell count, replicate 1 = 5978
CG8292 (GeneID 34125) [DRSC03082] — infection score, replicate 1 = 3.47; cell count, replicate 1 = 5932
CG5235 (GeneID 39758) [DRSC10494] — infection score, replicate 1 = 1.57; cell count, replicate 1 = 5748
Loxl1 (GeneID 43712) [DRSC14303] — infection score, replicate 1 = 4.91; cell count, replicate 1 = 6291
rb (GeneID 31381) [DRSC18826] — infection score, replicate 1 = 1.77; cell count, replicate 1 = 904
rb (GeneID 31381) [DRSC27940] — infection score, replicate 1 = 14.1; cell count, replicate 1 = 4983
Elba3 (GeneID 33670) [DRSC00469] — infection score, replicate 1 = 14.7; cell count, replicate 1 = 3675
CG17839 (GeneID 39616) [DRSC10290] — infection score, replicate 1 = 1.89; cell count, replicate 1 = 6254
CG17839 (GeneID 39616) [DRSC10291] — infection score, replicate 1 = 1.03; cell count, replicate 1 = 6233
lncRNA:bxd (GeneID 3772220) [DRSC13176] — infection score, replicate 1 = 0.59; cell count, replicate 1 = 5971
lncRNA:bxd (GeneID 3772220) [DRSC28062] — infection score, replicate 1 = 22.7; cell count, replicate 1 = 6641
CG13185 (GeneID 36268) [DRSC06310] — infection score, replicate 1 = 20.7; cell count, replicate 1 = 5019
